Values quoted from earlier work in PMC4287215 (Molecular imaging, 2009).

Protein sequences, listed by entry. Tags and fused reporters are not part of them. Residues count along the entry.
UniProt P06756, 891-1048 partner limits assumed: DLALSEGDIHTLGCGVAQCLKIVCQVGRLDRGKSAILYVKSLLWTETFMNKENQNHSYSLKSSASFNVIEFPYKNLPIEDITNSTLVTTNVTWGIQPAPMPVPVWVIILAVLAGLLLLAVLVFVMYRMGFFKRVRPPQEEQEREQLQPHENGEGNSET
UniProt P06756, 31-889 limits assumed: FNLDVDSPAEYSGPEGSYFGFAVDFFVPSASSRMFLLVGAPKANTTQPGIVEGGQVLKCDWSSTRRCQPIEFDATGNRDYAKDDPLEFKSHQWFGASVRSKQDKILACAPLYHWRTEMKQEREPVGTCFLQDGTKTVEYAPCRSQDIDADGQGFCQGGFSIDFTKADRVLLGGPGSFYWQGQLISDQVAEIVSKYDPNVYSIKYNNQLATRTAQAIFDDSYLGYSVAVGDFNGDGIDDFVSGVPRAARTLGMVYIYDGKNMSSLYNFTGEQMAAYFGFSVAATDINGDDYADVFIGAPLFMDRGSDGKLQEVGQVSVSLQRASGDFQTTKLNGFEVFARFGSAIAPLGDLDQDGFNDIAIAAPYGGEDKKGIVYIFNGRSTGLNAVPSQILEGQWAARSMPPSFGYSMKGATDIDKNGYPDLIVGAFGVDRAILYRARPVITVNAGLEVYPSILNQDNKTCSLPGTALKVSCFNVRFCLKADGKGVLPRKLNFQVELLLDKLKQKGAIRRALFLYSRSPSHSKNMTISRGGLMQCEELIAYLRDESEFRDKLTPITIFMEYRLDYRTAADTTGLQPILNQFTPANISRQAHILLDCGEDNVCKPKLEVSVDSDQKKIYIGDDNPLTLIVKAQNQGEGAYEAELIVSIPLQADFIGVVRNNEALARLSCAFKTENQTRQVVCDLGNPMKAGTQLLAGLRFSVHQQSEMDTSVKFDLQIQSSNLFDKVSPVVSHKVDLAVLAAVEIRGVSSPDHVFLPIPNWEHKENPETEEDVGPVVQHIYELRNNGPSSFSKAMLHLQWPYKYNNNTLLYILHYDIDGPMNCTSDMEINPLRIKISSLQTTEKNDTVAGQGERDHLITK
UniProt P18564, 22-788: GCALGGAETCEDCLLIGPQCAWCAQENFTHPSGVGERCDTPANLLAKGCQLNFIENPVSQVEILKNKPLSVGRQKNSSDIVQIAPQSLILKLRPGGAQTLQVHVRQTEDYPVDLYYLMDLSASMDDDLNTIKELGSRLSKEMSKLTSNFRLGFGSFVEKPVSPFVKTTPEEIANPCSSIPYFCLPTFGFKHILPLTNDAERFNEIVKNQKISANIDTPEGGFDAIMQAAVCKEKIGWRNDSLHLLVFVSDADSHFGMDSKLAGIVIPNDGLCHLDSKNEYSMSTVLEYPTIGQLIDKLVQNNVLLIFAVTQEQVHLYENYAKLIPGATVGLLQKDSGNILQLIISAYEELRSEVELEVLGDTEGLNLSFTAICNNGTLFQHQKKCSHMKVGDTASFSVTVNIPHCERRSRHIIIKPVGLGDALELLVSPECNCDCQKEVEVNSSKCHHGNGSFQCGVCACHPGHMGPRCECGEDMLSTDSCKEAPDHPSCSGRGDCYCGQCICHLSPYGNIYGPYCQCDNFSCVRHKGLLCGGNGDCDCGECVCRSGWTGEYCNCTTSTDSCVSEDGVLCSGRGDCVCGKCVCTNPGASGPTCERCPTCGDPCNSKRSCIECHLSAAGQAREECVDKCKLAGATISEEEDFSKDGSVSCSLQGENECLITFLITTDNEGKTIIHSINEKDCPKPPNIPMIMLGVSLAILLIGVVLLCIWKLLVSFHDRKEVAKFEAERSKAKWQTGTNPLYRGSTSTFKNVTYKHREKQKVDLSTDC

Target: integrin αvβ6 (Homo sapiens, UniProt P06756+P18564)
Conditions: read-out: IC50 αvβ6

A20FMDV2 [Compound 2]
IC50: 3 ± 1 nM
